# Test results as given in publication PMC5559489 (Scientific Reports, 2017).
# Tests used:
# [1] = target: seasonal influenza A(H3N2) virus neuraminidase (NA) (Influenza A virus, UniProt V9SU56); format: biochemical
# [2] = target: seasonal influenza B virus neuraminidase (NA) (Influenza B virus, UniProt C0LT34); format: biochemical
smiles,measurement,setting,value
"CCOC(=O)C1=C[C@@H](OC(CC)CC)[C@H](NC(C)=O)[C@@H](N)C1 [oseltamivir, Oseltamivir]","Number of resistant viruses/Number of tested viruses, Seasonal A(H3N2)",[1],0/98 and 0/27 and 0/36 and 0/21 and 0/48
same,"Number of resistant viruses/Number of tested viruses, Seasonal B",[2],0/279 and 0/79 and 0/10 and 0/26 and 0/54

# Several values for one entry are separate records, joined by “and”; a condition that tells them apart may be missing. Equal values may be shown once.
